The data set deals with PP1 (Homo sapiens, UniProt P62136). The data set can be described thus: Protein phosphatase 1 (PP1) inhibition assay, colorimetric.

Chains of the proteins cited; added tags and fusions are not shown. Lines headed by an entry give the natural chain unless they say otherwise; changes in a name come on top.
UniProt P62136: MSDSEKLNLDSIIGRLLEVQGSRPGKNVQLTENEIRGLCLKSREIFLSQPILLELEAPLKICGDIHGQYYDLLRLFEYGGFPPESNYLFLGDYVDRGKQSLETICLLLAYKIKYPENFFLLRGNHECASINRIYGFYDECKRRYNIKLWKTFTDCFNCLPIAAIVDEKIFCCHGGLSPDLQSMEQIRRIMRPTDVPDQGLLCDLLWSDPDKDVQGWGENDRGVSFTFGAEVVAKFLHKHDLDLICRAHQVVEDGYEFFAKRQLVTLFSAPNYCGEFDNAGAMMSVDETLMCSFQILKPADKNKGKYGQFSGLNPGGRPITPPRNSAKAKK

Consider “(2S, 3S, 8S, 9S)-3-amino-9-methoxy-2,6,8-trimethyl-10-phenyldeca-4(E), 6(E)-dienoic acid”, for which, where the note is “PP1 inhibition assay, conclusion”, the “secondary toxicity (PP1 inhibition), in words” value was “non-negligible”. The “inhibition effect on PP1 (in words)” value (colorimetric, p-nitrophenyl disodium orthophorphate 5 mM, 0.5 h pre-incubation with PP1, 1 h incubation, 405 nm, three repeated analyses, Figure 3) is “had a certain inhibition effect on PP1 at a higher concentration”.

The values above are taken from PMC7764552, “Regulation Efficacy and Mechanism of the Toxicity of Microcystin-LR Targeting Protein Phosphatase 1 via the Biodegradation Pathway” (2020).
